According to patent publication US20230158005A1 (priority 2020, published 2023):

Test system: A/England/195/2009 (H1N1)
Assay: Viral titers in the lungs of mice intranasally infected with influenza A
Assay type: in vivo

For `CC1=C(COCCC(C)(C)C)C(=O)N(Nc2ccc(C(F)(F)F)c(Cl)n2)C1=O` [felezonexor, 3-[(3,3-dimethylbutoxy)methyl]-1-{[6-chloro-5-(trifluoromethyl) (2-pyridyl)]amino}-4-methylazoline-2,5-dione], the “reduction in viral titers in the lung” value (Day 5, regimen D: 100 mg/kg oral, bid on Days 0, 2, 4, qd on Days 1, 3) was “two orders of magnitude” and the “reduction in viral titers in the lung” value (Day 5, regimen E: 100 mg/kg oral, qd on Days 0, 4, bid on Day 2) was “one order of magnitude”.
